Data published in patent US9175077B2, “Nucleic acids encoding biologically active polypeptides derived from a novel early stage pregnancy factor designated maternin (MA)” (NOBEL BIOSCIENCES LLC, priority 1999, dated 2015).

What was measured:
[1] = test system: HIV-1 gene expression; assay: HIV-1 transgenic mice, pups feeding from treated mothers; conditions: mouse, in vivo
Excerpt: The transgenic mice contain 5.1 kb of the HIV-1 proviral genome, lacking gag and pol genes and 2.3 kb of vector.^172 The newly developed transgenic rat contains the same HIV-1 sequences and vector. In both birth weights and features, the homozygous animals are born with normal weight and gross appearance, but in untreated animals shortly after birth, high levels of env and regulatory genes are expressed promptly correlating with failure to develop, cachexia, hyperkeratosis, immune abnormalities, kidney and CNS lesions, and early mortality (death of >90% by 10 days of age).
Twenty-four hours after birth the mothers were either inoculated subcutaneously daily for 10 days or received an implanted osmotic pump delivering 30-150 pmoles of either native or synthetic MA or pMA. Various control polypeptides were used at equimolar or vast molar excess. The newborn pups were then allowed to feed from the foster mother breast milk over the entire period. Since the animals are at risk from needle inoculation, breastfeeding was the chosen route for MA administration.
In these experiments total RNA was extracted from samples of skin RNA206 10 days after birth of MA treated and untreated mice. One ug of RNA was reverse transcribed into cDNA using random hexamer primer and […] reverse transcriptase (Life Technologies, Inc.) in a final vol. Of 30 ul. Three ul of each reaction was used for PCR amplification of the HIV-1 gene sequences (env, tat, nef, and rev) as described […], and glyceraldehyde 3-phosphate dehydrogenase (GAPDH) was amplified from each sample for normalization. After 25 cycles, 10% of the products were resolved by electrophoresis on 2% agarose gels, transferred to nitrocellulose membranes by Southern blotting, and hybridized to fluorescein isthiocyanate-labeled oligonucleotide probes complementary to internal sequences of the amplicons […]. Bound probes were detected by chemiluminescence (Amersham) and relative mRNA levels determined by densitrometry after normalization with GAPDH mRNA levels.

[2] = test system: HIV-1; conditions: controls at similar, equimolar or higher concentrations
Method: Virus (MOI of 0.001) was added to 10^6 cells in RPMI-1640 with 10% FCS. One hour later the various polypeptides were added once. The cells cultured for 3 days with 5 ug PHA and 20 i.m. of II-2/ml at 37°, after which virus was estimated by determining p24 (HIV-1) or p27 (SIV) (Organon-Teknika).
The effect of native and synthetic MA on HIV-1 infection in vitro was evaluated using PHA and II-2 stimulated primary peripheral blood cells (PBMC), CD4+ T-cells enriched fractions from PBMC, and CD14+ macrophage enriched fractions. Infection was with HIV-1 IIIB (PBMC and CD4+ T-cells), HIV-1 Ba-L (macrophages), and two primary HIV-1 isolates not passaged in any cell line (PBMC).

CR127: highly purified native hCG [reference compound]
HIV-1 viral expression in tissues [1]: high expression
mice dead by day 10 [1]: 10 of 10

recombinant hCG: recombinant hCG [reference compound]
HIV-1 viral expression in tissues [1]: high expression
mice dead by day 10 [1]: 10 of 10

α-hCG: α-chain of hCG [reference compound]
inhibition of HIV replication (qualitative) [2]: no effect
